According to publication PMC5793121 (Toxins, 2018):
Like-named read-outs stand apart in the source and are kept apart here. No end group written: not given here.

Tested on: male ICR mice
Method: Az acute toxicity was estimated for its intravenous (iv) and intramuscular (im) administration to male ICR mice in a stepwise procedure.
For the iv route of administration, 20 mice were randomly divided in 5 groups of 4 animals each. The animals of each group received a single dose of Az (0.3, 0.4, 0.5, 0.6, or 0.7 mg/kg, respectively) injected into the lateral tail vein at a volume of 1 mL/kg. For the im route of administration, first two experimental groups of 3 animals each were formed. Az at doses of 0.75 and 1.0 mg/kg, respectively, was injected into the quadriceps muscle of the thigh (quadriceps femoris muscle) of two mouse hind limbs at a volume of 0.5 mL/kg to each muscle. Then, five experimental groups of 5 animals each were formed. Az was injected into the quadriceps muscle of the thigh (quadriceps femoris muscle) of the two hind limbs of male ICR mice at doses of 0.8, 0.775, 0.75, 0.725 and 0.7 mg/kg. The injection volume to each limb was 1 mL/kg. Further, neurotoxic manifestations were recorded in animals at 5, 10, 20, 30, 60 and 90 min and 24 h after administration using the functional observation battery, the number of death was counted as well.
For the iv and im route of administration, the median lethal dose (LD50) was calculated using a probit analysis. For the im route of administration, the maximum tolerated dose was determined. […]

Molecule	lethality (rocuronium im 0.13 mg/kg, n = 1)	lethality (single im 0.7 mg/kg)
C=CC[N+]1([C@H]2C[C@H]3[C@@H]4CC[C@H]5C[C@H](O)[C@@H](N6CCOCC6)C[C@]5(C)[C@H]4CC[C@]3(C)[C@H]2OC(C)=O)CCCC1 [rocuronium, Rocuronium Bromide, reference compound]	lethal	–
DNWWPKPPHQGPRPPRPRPKP-NH2 [Az, azemiopsin]	–	all mice were alive
